PubChem BioAssay AID504761 | Drosophila RNAi Screening Center, 2011
The screen tested about 22,000 reagents; shown is an unselected part of those that have a named target and a result. In the full data, 116 (0.52%) got an active call. 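Calls depend on retest data that are not deposited; infection was ranked per plate without normalising between plates; the unit of the infection score is not given.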 Raw values are not corrected between plates. The numbers tell different reagents against one gene apart. Not all columns of the deposit are shown. No sequences are given here. The record does not give: the amount of reagent, the time to read-out.

Test: 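Insect host genes that dengue virus relies on to spread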 (primary screen)
Cells: D.Mel-2 cells from Drosophila
Reagent: long dsRNA against Drosophila genes
Treatment: infection with dengue virus type 2; dose and infection time not stated
Detection: 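Per well on two replicate plates, imaging gave the percent of cells positive for viral envelope protein, ranked by infection, and a nuclear count of cells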
Scale: infection score: higher = more virus-infected cells; cell count: higher = more cells in the well
Call rule: 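Low infection ranks in the two replicates (chance level up to 0.065) followed by a retest with a 1.5-fold or larger significant decrease, p below 0.05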
Calls: active = confirmed: knock-down lowers infection; inactive = not picked or not confirmed

CG12516: infection score, replicate 1 = 0.41; cell count, replicate 1 = 6070; activity call = inactive
CG7519: infection score, replicate 1 = 14.8; cell count, replicate 1 = 5778; activity call = inactive
Ced-12 #1: infection score, replicate 1 = 5.1; cell count, replicate 1 = 6607; activity call = inactive
Ced-12 #2: infection score, replicate 1 = 2.02; cell count, replicate 1 = 7423; activity call = inactive
GABA-B-R1: infection score, replicate 1 = 4.5; cell count, replicate 1 = 5845; activity call = inactive
CG14397: infection score, replicate 1 = 1.86; cell count, replicate 1 = 6224; activity call = inactive
Spn85F: infection score, replicate 1 = 5.28; cell count, replicate 1 = 6662; activity call = inactive

In a second layout: 2 of the entries above.
{"target gene":"CG14397","dsRNA no.":1,"infection score, replicate 1":1.86,"cell count, replicate 1":6224,"activity call":"inactive"}
{"target gene":"Spn85F","dsRNA no.":1,"infection score, replicate 1":5.28,"cell count, replicate 1":6662,"activity call":"inactive"}

The list goes on:
CG30479 #1: infection score, replicate 1 = 12.1; cell count, replicate 1 = 5841; activity call = inactive
CG30479 #2: infection score, replicate 1 = 20.6; cell count, replicate 1 = 5759; activity call = inactive
CG41520: infection score, replicate 1 = 9.49; cell count, replicate 1 = 4163; activity call = inactive
dnd: infection score, replicate 1 = 1.07; cell count, replicate 1 = 6564; activity call = inactive
CG14853 #1: infection score, replicate 1 = 1.25; cell count, replicate 1 = 6585; activity call = inactive
CG14853 #2: infection score, replicate 1 = 1; cell count, replicate 1 = 5601; activity call = inactive
CG3270: infection score, replicate 1 = 9.7; cell count, replicate 1 = 6183; activity call = inactive
